Test results published in article PMC8653295 (Chemistry (Weinheim an Der Bergstrasse, Germany), 2021).

Columns and labels:
SARS‐CoV PL^pro = SARS‐CoV PL^pro (Severe acute respiratory syndrome coronavirus, UniProt P0C6X7); type: biochemical
SARS‐CoV‐2 PL^pro = SARS‐CoV‐2 PL^pro (Severe acute respiratory syndrome coronavirus 2, UniProt P0DTD1); type: biochemical
[1] = molecular target: interaction of the RBD of the SARS‐CoV‐2 S protein with the ACE2 receptor (Severe acute respiratory syndrome coronavirus 2, UniProt P0DTC2); type: binding; conditions: read-out: IC50 as inhibitors of the S/ACE2 interaction

| Compound | IC50 (SARS‐CoV PL^pro) [nM] | IC50 SARS‐CoV PL^pro (SARS‐CoV PL^pro) | IC50 (SARS‐CoV‐2 PL^pro) [nM] | IC50 [1] [nM] |
| --- | --- | --- | --- | --- |
| Na12[PbO8Pd12 (PO4)8] ⋅ 38H2O [POM‐1] | 950 ± 60 | submicromolar concentration range | 170 ± 110 |  |
| Rb5.5Na4.5[{(p‐tolyl)Sb}4(PW9O34)2] ⋅ 40H2O [POM‐6] | 9100 ± 1600 |  | 200 ± 30 | 200 ± 100 |
| [Pd16Na2O26 (OH)3Cl3((CH3)2As)8] ⋅ 0.25Na(CH3)2AsO2 ⋅ 17H2O [POM‐11] | 710 ± 200 | submicromolar concentration range | 130 ± 40 | 2500 ± 300 |
| Rb6Na6[{(p‐tolyl)Sb}4(GeW9 O34)2] ⋅ 40H2O [POM‐7] | 2400 ± 1600 |  | 460 ± 190 | 300 ± 100 |
| Na12[SnO8Pd12(PO4)8] ⋅ 43H2O [POM‐2] | 820 ± 170 | submicromolar concentration range | 540 ± 80 |  |
| Na6[TeW6O24] ⋅ 22H2O [POM‐5] | 19300 ± 4600 |  |  |  |
| CCn1[c]([Au-][S]C(=S)N2CCC(C(=O)NC3C(O)OC(CO)C(O)C3O)CC2)[n+](CC)c2ccccc21 (mixture of isomers) [Au‐35] | 710 ± 50 |  |  |  |
